Paper PMC11225919
Tags and fusion partners may be left off the protein sequences shown.

Molecular target: T1, Fur (6xHis-tagged) (Salmonella enterica serovar Infantis 119944) (UniProt A0A4Z0KGQ7)
T1 sequence (looked up): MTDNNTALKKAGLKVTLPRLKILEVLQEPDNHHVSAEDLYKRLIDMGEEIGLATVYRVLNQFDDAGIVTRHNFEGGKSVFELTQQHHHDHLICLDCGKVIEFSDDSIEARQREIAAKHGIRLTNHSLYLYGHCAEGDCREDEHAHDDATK
Test: EMSA
Details: 100 uM MnCl2, 1 mM MgCl2; recombinant protein; residues 1-150; protein details: N-terminal 6xHis (pET28a, NdeI/BamHI); probe letters rebuilt from the primers and the genome

“GGAGTGACTGAATTTCCTGATGAATTTTTACGGACGCCAAAAACGACAATTCAGGGTGGCGTTCTGAGAATTAATGTGAATAATAAGCATTATCAATAACTCTTCTACCCCATTCGGTTCTATTTATACCCTAAATAGTTCGAGTTGCAGGAAGGCGGCAAGCGAGGGAAGCCCCAGGAGCTTACAGAAGTAAGTGACTGGAGTGAGTGACAAATCTGTCTGGAACAGATTTGAACGCCGCTTGCGGCGGCCCGTAAGGGCGAGGCCCAGGGATGGGCCGAGTAACCCGTAGCCAACGCACATGCAACTTGAAATATGACGGGTATATGCCCGCATTGGTCTAAGCCACAGGGAGATAACCAGGTCATGACGGAGTCACCG (double strand) [ybtA promoter (pESI)]”: binds.
